Test results published in US9156855B2, “Regulation of nitric oxide release and biofilm development” (Newsouth Innovation Pty Limited, priority 2011, dated 2015).

System: P. aeruginosa 18A biofilms
Details: 100 μM, 10 min, biofilms grown for 24 h

How did the “dispersal (CV staining)” value turn out when CCN(CC)/[N+]([O-])=N/OCC1=C(C(=O)O)N2C(=O)C(NC(=O)Cc3ccccc3)C2SC1 (stereo not shown) [Compound 21] was run?
Its value is 35%.
